Experimental data taken from PMC6602965.

Biological target: AhlC head mutant (triple L156T, L160T, L161T) (Aeromonas hydrophila strain AL09-71)
Test: crystal structure; AhlC head mutant, 0.1 M imidazole pH 8, 10% PEG 8000, P6(1)22, 1.92 A; tetramer assembled by crystal symmetry

## AhlC head mutant (triple L156T, L160T, L161T) (natural protein)
  stoichiometry N: 4
